Pooled drug test results. Numbers come from NIAID ChemDB, via PubChem.

Shared fields: whole-cell or culture tests; organism: Mycobacterium tuberculosis

Inhibition is in % at the dose shown (toxicity tests: loss of growth or viability). Blank or dashed fields: not listed here. Rows are shuffled and stem from different studies. MIC50, MIC90 and the like: level of inhibition, or share of isolates inhibited. ECn is the concentration giving n% inhibition of infection, replication or growth. a–b is a range or a potency band. MIC bound comes from a single tested concentration.

compound	strain or isolate	cells	method	read-out	tested at	result
C/C(=N\Nc1ccccn1)c1ccccn1	H37Rv		BACTEC	inhibition	12.5 µg/mL	-13%
O=C(c1ccncc1)N(NCc1cccc([N+](=O)[O-])c1)C(=O)c1cnccn1	9 isolates (sensitive)			MIC		0.25 µg/mL
NC[C@@H]1O[C@H](O[C@H]2[C@@H](O)[C@H](O[C@@H]3[C@@H](O)[C@H](N)C[C@H](N)[C@H]3O[C@H]3O[C@H](CO)[C@@H](O)C[C@H]3N)O[C@@H]2CO)[C@H](N)[C@@H](O)[C@@H]1O[C@H]1O[C@H](CO)[C@@H](O)[C@H](O)[C@@H]1O	H37Rv (streptomycin-resistant)			EC50		25–50 µg/mL
CCNc1nc(NCC)nc(NNc2nc(-c3ccc(Cl)cc3)c(C#N)c(=O)n2C)n1	H37Rv			MIC		>12.5 µg/mL
C=C1C[C@]23C[C@H]1CC[C@H]2[C@]1(C)CCC[C@](C)(COC(C)=O)[C@H]1C[C@H]3O	H37Ra		resazurin / absorbance	MIC		25–50 µg/mL
COC1=CC(=O)c2c(O)c3c(c(O)c2C1=O)C=C(C)OC3O	H37Rv		BACTEC	MIC bound		>12.5 µg/mL
COc1ccc(/C=N/N(C(=O)c2ccncc2)C(=O)c2cnccn2)c(O)c1	9 isolates (resistant)			MIC		>16 µg/mL
COc1cc2c(cc1OC)CN(c1c(F)c([N+](=O)[O-])c3c(=O)c(C(=O)O)cn4c3c1OCC4C)CC2	MDR-TB		agar	MIC99		3.12 µM
Cc1nc2scc(-c3ccco3)c2c(=O)n1NC(=O)C1CC1	CNCTC MY331/88			MIC		209 µM
COc1cc2c(cc1OC)C(C(=O)O)C1c3cc4c(cc3CCN1C2=O)OCO4	H37Rv		BACTEC	MIC		≥12.5 µg/mL
CN(C)c1ccc(CC(=O)c2ccc([N+](=O)[O-])o2)cc1	H37Rv			MIC90		0.1 µg/mL
Cc1cc(O)c2c(c1)C(=O)c1c(oc3c1c(=O)oc1cccc(C)c13)C2=O	H37Rv (ATCC 27294)			MIC		4.88 µg/mL
Cc1nc2scc(-c3ccco3)c2c(=O)n1/N=C/C1CCCCC1	CNCTC MY331/88			MIC		62 µM
CCOC(=O)C1=C(C)N(c2ccc(OC)cc2)C(C)=C(C(=O)OCC)C1c1ccc(-c2ccc(F)c(Cl)c2)o1	H37Rv		BACTEC / radiometric	inhibition	6.25 µg/mL	61%
C[C@H]1COc2c(N3CCC4(CC3)OCCO4)c(F)cc3c(=O)c(C(=O)O)cn1c23	MDR-TB		agar	MIC99		0.09 µM
COC(=O)C1=C(C)N(c2ccc(Br)cc2)C(C)=C(C(=O)OC)C1c1ccc(-c2ccc(F)c(Cl)c2)o1	H37Rv		BACTEC / radiometric	inhibition	6.25 µg/mL	14%
COc1ccc(C2CC(c3ccc(O)c(C)c3)=NO2)cc1OC	INH-resistant M. tuberculosis			MIC		>6.25 µM
Cn1c(NNc2nc(Nc3ccc(Cl)cc3Cl)nc(Nc3ccc(Cl)cc3Cl)n2)nc(-c2ccccc2)c(C#N)c1=O	H37Rv			inhibition	12.5 µg/mL	14%
Cc1c(-c2ccc(N3CCCCC3)cc2)[nH]c2ccccc2c1=O	H37Rv		fluorescence	inhibition	5 µM	98.2%
C=C1C(=O)[C@]23[C@H](O)[C@H]1CC[C@H]2[C@@]1(C)[C@H](C[C@H]3OC(C)=O)C(C)(C)CC[C@H]1OC(C)=O	H37Rv		resazurin / absorbance	MIC		6.25–12.5 µg/mL
CCOC(=O)C1=C(C)N(c2ccc([N+](=O)[O-])cc2)C(C)=C(C(=O)OCC)C1c1ccc(-c2ccc(F)c(Cl)c2)o1	H37Rv		BACTEC / radiometric	inhibition	6.25 µg/mL	59%
CCC1=C(c2ccc(OC)cc2)C(C)(C)Oc2cc(O)c(CN3CCCC3)cc21	H37Rv		BACTEC	inhibition	12.5 µg/mL	98%
COc1c(C)c(-c2ccc(Cc3ccccc3)cc2)nc2ccccc12	H37Rv		fluorescence	inhibition	5 µM	93.4%
CCCCCCCCCCCCCCC[C@H](O)CCC[C@H]1CC=CC(=O)O1	H37Rv	VERO	fluorescence	inhibition	128 µg/mL	97.4%
CC1(C)CC(=O)/C(=C/C2CCNC2=S)C(=O)N1	H37Rv		BACTEC	inhibition	12.5 µg/mL	0%
Cc1nc2scc(-c3ccco3)c2c(=O)n1/N=C/c1ccc(F)cc1	CNCTC MY331/88			MIC		10 µM
Cc1c(-c2ccc(Oc3ccc(OC(F)(F)F)cc3)nc2)[nH]c2ccccc2c1=O	H37Rv		fluorescence	inhibition	5 µM	80.5%
COc1cc(C(C2=C(O)c3ccccc3C(=O)C2=O)C2=C(O)c3ccccc3C(=O)C2=O)cc(OC)c1OC	H37Rv		BACTEC	MIC bound		>12.8 µg/mL
Cc1nc2scc(-c3ccco3)c2c(=O)n1NC(=O)c1ccc(Cl)cc1Cl	CNCTC MY331/88			MIC		16 µM
CCCCCCCCCCCCCCC[C@H](O)C[C@H]1CC=CC(=O)O1	H37Rv	VERO	fluorescence	inhibition	128 µg/mL	98.9%
CC(=O)Nn1cnc2ccccc2c1=O	H37Rv		BACTEC	inhibition	12.5 µg/mL	14%
Cc1ccc(/C=N/n2c(C)nc3scc(-c4ccco4)c3c2=O)cc1	CNCTC MY331/88			MIC		58 µM
Cc1ccc(Nc2nc(NNc3nc(-c4ccc(Cl)cc4)c(C#N)c(=O)n3C)nc(Nc3ccc(C)cc3C)n2)c(C)c1	H37Rv			MIC		>12.5 µg/mL
C1=NCCN=Cc2ccccc2NCCNc2ccccc21	H37Rv		resazurin	inhibition	6.25 µg/mL	-2%
O=C(c1ccncc1)N(/N=C/c1cccc([N+](=O)[O-])c1)C(=O)c1cnccn1	9 isolates (sensitive)			MIC		1–2 µg/mL
CCOC(=O)c1c(-c2ccc(Cc3ccc(OC(F)(F)F)cc3)cc2)[nH]c2ccccc2c1=O	H37Rv		fluorescence	inhibition	5 µM	0%
CN(C)CCCCc1cn(-c2ccccc2)c2ccccc12			resazurin	MIC bound		>6.25 µg/mL
Cn1c(NNc2nc(Nc3ccc(Cl)cc3)nc(Nc3ccc(Cl)cc3)n2)nc(-c2ccccc2)c(C#N)c1=O	H37Rv			MIC		>12.5 µg/mL
CN1CC(=O)N(CO)/C1=N/CO	H37Rv		BACTEC	MIC bound		>12.5 µg/mL
Cc1ccc(Nc2nc(NNc3nc(-c4ccccc4)c(C#N)c(=O)n3C)nc(Nc3ccc(C)cc3C)n2)c(C)c1	H37Rv	VERO		MIC		6.25 µg/mL
O=C1OC(c2ccccc2)CC1N1CCCCC1	H37Rv		BACTEC	MIC bound		>12.5 µg/mL
NNC(=O)c1ccncc1	H37R (MTB)			MIC		0.7 µM
CCOC(=O)C1=C(C)N(c2ccc(Br)cc2)C(C)=C(C(=O)OCC)C1c1ccc(-c2ccc(F)c(Cl)c2)o1	H37Rv		BACTEC / radiometric	inhibition	6.25 µg/mL	6%
CCCCCCCCCCCCCCC[C@H]1CCCC(=O)O1	H37Rv		fluorescence	inhibition	128 µg/mL	53.6%
COc1cc2c(cc1OC)CN(c1c(F)cc3c(=O)c(C(=O)O)cn4c3c1OCC4C)CC2			agar	MIC99		1.72 µM
COc1ccc(CCn2cnn3c(=O)c4ccccc4nc3c2=O)cc1OC	H37Rv		BACTEC	inhibition	12.5 µg/mL	1%
COc1cc(C2CC(c3ccc(O)c(C)c3)=NO2)cc(OC)c1OC	H37R (MTB)			MIC		>6.25 µM
NC(=O)C1=C(C(=O)O)CCC1	H37Rv		BACTEC	inhibition	12.5 µg/mL	-9%
COc1cccc(NC(=O)c2cc([N+](=O)[O-])cn2C)c1	H37Rv			MIC90		>200 µg/mL
C=C1C(=O)[C@]23C[C@H]1C[C@H](OC(C)=O)[C@H]2[C@]1(C)CCCC(C)(C)[C@H]1C[C@H]3O	H37Rv		resazurin / absorbance	MIC		25–50 µg/mL
NCC[C@H](O)C(=O)N[C@@H]1C[C@H](N)[C@@H](O[C@H]2O[C@H](CN)[C@@H](O)[C@H](O)[C@H]2O)[C@H](O)[C@H]1O[C@H]1O[C@H](CO)[C@@H](O)[C@H](N)[C@H]1O	MDR11		broth dilution / resazurin	MIC		1 µg/mL
COC(=O)C1=C(C)N(c2ccccc2Cl)C(C)=C(C(=O)OC)C1c1ccc(-c2ccc(F)c(Cl)c2)o1	H37Rv		BACTEC / radiometric	inhibition	6.25 µg/mL	62%
O=c1[nH]ncc(Cl)c1Cl			resazurin	MIC bound		>6.25 µg/mL
Cc1c(-c2cnn(Cc3ccc(OC(F)(F)F)cc3)c2)[nH]c2ccccc2c1=O	H37Rv		fluorescence	inhibition	5 µM	2.6%
Cc1nc2scc(-c3ccco3)c2c(=O)n1NC(=O)c1ccc(Cl)cc1	CNCTC MY331/88			MIC		16 µM
CCCCCCCCCCCCCCC[C@H](O)C[C@H](O)C[C@H](O)C[C@H]1CC=CC(=O)O1	H37Rv			MIC		23.4 µg/mL
NNC(=O)c1cnn(-c2ccc(N(CCO)CCO)nn2)c1N	H37Rv		BACTEC	MIC bound		>12.5 µg/mL
COc1ccccc1Nc1nc(NNc2nc(-c3ccc(Cl)cc3)c(C#N)c(=O)n2C)nc(Nc2ccccc2OC)n1	H37Rv			inhibition	12.5 µg/mL	12%
COc1ccc(CNC(=O)c2nc([N+](=O)[O-])cn2C)cc1OC	H37Rv			MIC90		>200 µg/mL
O=C1OCC2OC(=O)c3cc(O)c(O)c(O)c3-c3c(O)c(O)c(O)c4c3C(=O)OC(C2OC(=O)c2cc(O)c(O)c(O)c2-c2c1cc(O)c(O)c2O)C1OC(=O)c2c-4c(O)c(O)c(O)c2[C@@H]1O	H37Rv		BACTEC	MIC		≥12.5 µg/mL
Cc1cc(C2=NOC(c3ccc(N(C)C)cc3)C2)ccc1O	INH-resistant M. tuberculosis			MIC		>6.25 µM
c1ccc2c(c1)nc1cc(NC3CCCCC3)c(=NC3CCCCC3)cc-1n2C1CCCCC1	H37Rv		BACTEC	inhibition	12.5 µg/mL	99%
NC(=O)c1cnccn1	Isolate 10348 monodrug-resistant			MIC		>300 µg/mL
CCCCCCCCCCCCCCC[C@H](O)C[C@H](O)CCC[C@H]1CC=CC(=O)O1	H37Rv			MIC		38.04 µg/mL
Cn1c(NNc2nc(Nc3ccc(Cl)cc3)nc(Nc3ccc(Cl)cc3)n2)nc(-c2ccc(Cl)cc2)c(C#N)c1=O	H37Rv			MIC		12.5 µg/mL
CC1=C2C(=CO[C@H](C)[C@H]2C)C(=O)C(C(=O)O)=C1O	H37Rv			inhibition	10 µg/mL	66%
O=C(Nc1ncc([N+](=O)[O-])s1)c1ccc2c(c1)OCO2	H37Rv			MIC90		25 µg/mL
CCCCCCCCCCCCCCCCCC(=O)OC(CO)OC(=O)CCCCCCCCCCCCCCCCC	H37Rv		BACTEC	MIC bound		>12.5 µg/mL
Cc1nc2scc(-c3ccco3)c2c(=O)n1NC(=O)c1ccco1	CNCTC MY331/88			MIC		96 µM
CCCCCCCCCCCCCCC[C@H](O)CC[C@H](O)C[C@H]1CC=CC(=O)O1	H37Rv		fluorescence	inhibition	128 µg/mL	84.3%
O=C(NCc1ccc(N2CCOCC2)cc1)c1ccc([N+](=O)[O-])s1	H37Rv			MIC90		6.5 µg/mL
COc1ccc(CNN(C(=O)c2ccncc2)C(=O)c2cnccn2)cc1	9 isolates (sensitive)			MIC		0.125–0.25 µg/mL
O=c1cc(-c2ccc(Cc3ccc(OC(F)(F)F)cc3)cc2)[nH]c2ccccc12	H37Rv		fluorescence	inhibition	5 µM	0%
CCOC(=O)c1cc(-c2ccccc2)c(OC)c(=O)nc1-c1ccccc1	H37Rv		BACTEC	MIC bound		>12.5 µg/mL
COc1cc(/C=N/N(C(=O)c2ccncc2)C(=O)c2cnccn2)ccc1O	9 isolates (resistant)			MIC		>16 µg/mL
S=C(S)NN1CCCC1	H37Rv		BACTEC	MIC bound		≤12.5 µg/mL
CC1CN(c2c(F)cc3c(=O)c(C(=O)O)cn4c3c2OC[C@@H]4C)CC(C)O1			agar	MIC99		4.14 µM
C=C1C[C@@]23CC[C@@H]4[C@@](C)(COC(C)=O)CCC[C@@]4(C)[C@@H]2[C@H](O)C[C@@H]1C3	H37Rv		resazurin / absorbance	MIC		>50 µg/mL
COc1ccc(CCNC(=O)c2ccc([N+](=O)[O-])s2)cc1	H37Rv			MIC90		200 µg/mL

For reference, 9 entries again:

compound,strain or isolate,cells,method,read-out,tested at,result
O=C(NCc1ccc(N2CCOCC2)cc1)c1ccc([N+](=O)[O-])s1,H37Rv,,,MIC90,,6.5 µg/mL
CN(C)c1ccc(CC(=O)c2ccc([N+](=O)[O-])o2)cc1,H37Rv,,,MIC90,,0.1 µg/mL
COc1ccccc1Nc1nc(NNc2nc(-c3ccc(Cl)cc3)c(C#N)c(=O)n2C)nc(Nc2ccccc2OC)n1,H37Rv,,,inhibition,12.5 µg/mL,12%
Cc1ccc(/C=N/n2c(C)nc3scc(-c4ccco4)c3c2=O)cc1,CNCTC MY331/88,,,MIC,,58 µM
COc1cc(/C=N/N(C(=O)c2ccncc2)C(=O)c2cnccn2)ccc1O,9 isolates (resistant),,,MIC,,>16 µg/mL
COC(=O)C1=C(C)N(c2ccccc2Cl)C(C)=C(C(=O)OC)C1c1ccc(-c2ccc(F)c(Cl)c2)o1,H37Rv,,BACTEC / radiometric,inhibition,6.25 µg/mL,62%
COC(=O)C1=C(C)N(c2ccc(Br)cc2)C(C)=C(C(=O)OC)C1c1ccc(-c2ccc(F)c(Cl)c2)o1,H37Rv,,BACTEC / radiometric,inhibition,6.25 µg/mL,14%
C[C@H]1COc2c(N3CCC4(CC3)OCCO4)c(F)cc3c(=O)c(C(=O)O)cn1c23,MDR-TB,,agar,MIC99,,0.09 µM
O=c1cc(-c2ccc(Cc3ccc(OC(F)(F)F)cc3)cc2)[nH]c2ccccc12,H37Rv,,fluorescence,inhibition,5 µM,0%